A mixed list of measured activities; the numbers were collected in NIAID ChemDB.

All rows: tests in culture; species: Mycobacterium tuberculosis

MIC50, MIC90 and the like: level of inhibition, or share of isolates inhibited. ECn: concentration that inhibits the pathogen or its effect by n%. Neighbouring rows are from separate reports. An empty or dashed field is not shown. Percent inhibition refers to the dose given; in toxicity tests it is the harm to the cells. MIC bound comes from a single tested concentration.

structure,strain or isolate,read by,conditions,endpoint,cell line,tested at,result
CC(=O)c1c(C)n([O-])c2cc(Cl)c(Cl)cc2[n+]1=O,H37Rv,BACTEC,,inhibition,VERO,6.25 µg/mL,100%
CCOC(=O)CNC(=O)C(CC(C)C)NC(=O)C1CCCN1C(=O)OCc1ccccc1,H37Rv,BACTEC,,inhibition,,12.5 µg/mL,4%
Clc1ccc2nc3c(c(-c4ccccc4)c2c1)SC(c1cccc2ccccc12)C3,H37Rv,agar,,MIC,,,29.48 µM
CC(C)(C)OC(=O)N1CCCC[C@H]1[C@@H](O)c1cc(C(F)(F)F)nc2c(C(F)(F)F)cccc12,,,,MIC,,,31 µM
COC(=O)c1ccc(NC(=O)C(Cl)Cl)cc1S(=O)(=O)NC(=O)Nc1nccc(C)n1,H37Rv,,,MIC,,,20 µg/mL
COc1ccc(N2CCN(Cc3c(C(C)=O)[n+](=O)c4ccccc4n3[O-])CC2)cc1,H37Rv,BACTEC,,inhibition,,6.25 µg/mL,0%
CC(=O)/C(N=Nc1ccc(C(=O)N/N=C/c2ccncc2)cc1)=C(\C)O,H37Rv,,,MIC,,,>12.5 µg/mL
CC[C@H]1OC(=O)[C@H](C)[C@@H](O[C@H]2C[C@@](C)(OC)[C@@H](O)[C@H](C)O2)[C@H](C)[C@@H](O[C@@H]2O[C@H](C)C[C@H](N(C)C)[C@H]2O)[C@](C)(O)C[C@@H](C)CN(C)[C@H](C)[C@@H](O)[C@]1(C)O,30 isolates/HIV+,,,MIC90,,,>8 µg/mL
O=[N+]([O-])c1cccc(C2Cc3nc4ccccc4c(-c4ccccc4)c3S2)c1,MDR,agar,,MIC,,,8.14 µM
O=[N+]([O-])c1cc(F)ccc1-n1cc(CS(=O)(=O)C2c3ccccc3-c3ccccc32)nn1,H37Rv,broth dilution,,MIC99,,,>222 µM
CCCCCCCCCCCCCCCCOCCCCOP(=O)(O)C[C@@H]1O[C@H](CO)[C@@H](O)[C@@H]1O,H37Rv,,,EC50,,,<6.25 µg/mL
CCN1C(=O)S/C(=C/c2ccc(Cl)c(Cl)c2)C1=O,H37Rv,BACTEC,,inhibition,,12.5 µg/mL,19%
COC(=O)c1ccc(NC(=O)CCl)cc1S(=O)(=O)NC(=O)Nc1nccc(C)n1,H37Rv,,,MIC,,,>80 µg/mL
COc1cc(/C=N/NC(=O)c2ccc(N)cc2)ccc1O,H37Rv,,,inhibition,,12.5 µg/mL,26%
CCSc1nc2ccccc2[nH]1,My 331/88,,,MIC,,,>1000 µM
Oc1ccc2c3c1O[C@H]1CCC[C@H]4[C@@H](C2)N(Cc2ccoc2)CC[C@]314,H37Rv,BACTEC,,MIC bound,,,>12.5 µg/mL
CC(=O)c1c(C)n([O-])c2ccccc2[n+]1=O,H37Rv,BACTEC,,EC50,VERO,,<6.25 µg/mL
CC(=O)O[C@@H]1OC[C@@]23[C@H]4C(=O)[C@H](OC(C)=O)[C@@]5(C)[C@H](c6ccoc6)C[C@H]6O[C@]65[C@]4(C)[C@H](O)C[C@H]2[C@]1(C)[C@H](OC(C)=O)C[C@@H]3O,H37Rv,BACTEC,,inhibition,,12.5 µg/mL,-6%
Fc1ccc(C2Cc3nc4ccc(Cl)cc4c(-c4ccccc4)c3S2)cc1,H37Rv,agar,,MIC,,,3.98 µM
CCCCCCCCCC(=O)N[C@H]1[C@H](Oc2c3cc4cc2Oc2ccc(cc2Cl)[C@@H](O[C@@H]2O[C@H](CO)[C@@H](O)[C@H](O)[C@H]2NC(C)=O)[C@@H]2NC(=O)[C@H](NC(=O)[C@@H]4NC(=O)[C@H]4NC(=O)[C@@H](Cc5ccc(c(Cl)c5)O3)NC(=O)[C@H](N)c3ccc(O)c(c3)Oc3cc(O)cc4c3)c3ccc(O)c(c3)-c3c(O[C@H]4O[C@H](CO)[C@@H](O)[C@H](O)[C@@H]4O)cc(O)cc3[C@H](C(=O)O)NC2=O)O[C@H](CO)[C@@H](O)[C@@H]1O,L1904,,,MIC,,,>64 µg/mL
FC(F)(F)c1cc(N2CCNCC2)c2cccc(C(F)(F)F)c2n1,,,,MIC,,,59 µM
Clc1cccc(CSc2nc3ccccc3[nH]2)c1,My 331/88,,,MIC,,,>250 µM
CCCCCCCCCCCCCCCCCCCCP(=O)([O-])C[C@@H]1O[C@H](CO)[C@@H](O)[C@@H]1O,H37Rv,,,inhibition,,6.25 µg/mL,0%
CN1CCN(/N=C/c2cc(C(F)(F)F)nc3c(C(F)(F)F)cccc23)CC1,,,,MIC,,,9 µM
C/C=C/C=C/C1O[C@@](O)([C@H](CC)C(=O)NC/C=C/C=C(\C)[C@H](OC)C(C)[C@H]2O[C@@H](/C=C/C=C/C=C(\C)C(=O)c3c(O)ccn(C)c3=O)[C@@H](O)[C@H]2O)C(O)C(O)C1(C)C,H37Rv,BACTEC,,MIC,,,≥12.5 µg/mL
c1ccc(-c2c3c(nc4ccccc24)CC(c2ccccc2)S3)cc1,H37Rv,agar,,MIC,,,36.82 µM
Nc1ccc(C(=O)N/N=C/c2ccccc2F)cc1,H37Rv,,,inhibition,,12.5 µg/mL,6%
CC(=O)NC[C@H]1CN(c2ccc(N3CC4CC(CC#N)CC4C3)c(F)c2)C(=O)O1,H37Rv,resazurin,,MIC,,,1 µg/mL
FC(F)(F)c1ccc(CSc2nc3ccccc3[nH]2)cc1,My 331/88,,,MIC,,,32 µM
CC(C)CCCC(C)CCS(=O)(=O)C[C@@H]1O[C@H](CO)[C@@H](O)[C@@H]1O,H37Rv,,,inhibition,,6.25 µg/mL,20%
CC(=O)/C(N=Nc1ccc(C(=O)N/N=C/c2ccc(O)cc2)cc1)=C(\C)O,H37Rv,,,MIC,,,>12.5 µg/mL
C=CCSc1nc2ccccc2[nH]1,My 331/88,,,MIC,,,500 µM
CCCCCCCCCS(=O)(=O)C[C@@H]1O[C@H](CO)[C@@H](O)[C@@H]1O,H37Rv,,,EC50,,,>6.25 µg/mL
CCNC(=O)c1ccc(Br)c(S(=O)(=O)NC(=O)Nc2nccc(OC)n2)c1,H37Rv,,,MIC,,,>80 µg/mL
CC(C)OC(=S)Nc1ccc(Cl)c(COC(C)(C)C)c1,H37Rv,BACTEC,,MIC bound,,,≤12.5 µg/mL
Nc1ccc(C(=O)N/N=C/c2ccc(F)cc2)cc1,H37Rv,,,EC50,,,>12.5 µg/mL
Clc1cc(Cl)cc(-n2cc(CSC3c4ccccc4-c4ccccc43)nn2)c1,H37Rv,broth dilution,,MIC99,,,118 µM
O=C(Nc1ccc(Cl)cc1)N1CCCC[C@H]1[C@@H](O)c1cc(C(F)(F)F)nc2c(C(F)(F)F)cccc12,,,,MIC,,,21 µM
CC(=O)c1c(CN2CCN(c3ccccc3C)CC2)n([O-])c2ccccc2[n+]1=O,H37Rv,BACTEC,,inhibition,,6.25 µg/mL,0%
O=C(CCN1CCC2CCC(C2)C1)c1ccc([N+](=O)[O-])o1,H37Rv,resazurin,,inhibition,,6.25 µg/mL,-37%
Cc1ccc(-n2cc(CS(=O)(=O)C3c4ccccc4-c4ccccc43)nn2)cc1,Specimen 192,broth dilution,,MIC99,,,125 µM
CCOC(=O)/C=C(\C)Nc1ccc(NC(C)=O)cc1,H37Rv,BACTEC,,MIC bound,,,>12.5 µg/mL
O=S(=O)(Cc1cn(-c2ccccc2)nn1)C1c2ccccc2-c2ccccc21,Specimen 192,broth dilution,,MIC99,,,>258 µM
CC(=O)/C(N=Nc1ccc(C(=O)N/N=C/c2ccc([N+](=O)[O-])cc2)cc1)=C(\C)O,H37Rv,,,MIC,,,>12.5 µg/mL
Clc1ccc(-n2cc(CSC3c4ccccc4-c4ccccc43)nn2)cc1,Specimen 192,broth dilution,,MIC99,,,74.2 µM
COc1ccc(CCn2cnn3c(=O)c4ccccc4nc3c2=O)cc1OC,H37Rv,BACTEC,,MIC bound,,,>12.5 µg/mL
CCOC(=O)/C(C#N)=N/Nc1ccc(C(=O)OCC)c(S(=O)(=O)NC(=O)Nc2nccc(OC)n2)c1,H37Rv,,,MIC,,,>80 µg/mL
CN(C)/N=N/c1[nH]cnc1C(N)=O.[Cl][Cu][Cl],H37Rv,BACTEC,,MIC,,,3.13 µg/mL
COc1ccnc(NC(=O)NS(=O)(=O)c2cc(NC(=O)CCl)ccc2C(=O)OC(C)C)n1,H37Rv,,,MIC,,,>80 µg/mL
CC1OC(=O)c2cccc(O)c21,H37Rv,,,MIC,,,1000 µg/mL
CCCCCCCCCCS(=O)(=O)C[C@@H]1O[C@H](CO)[C@@H](O)[C@@H]1O,H37Rv,,,EC50,,,>6.25 µg/mL
Cc1c(C(=O)c2ccccc2)[n+](=O)c2cc(Cl)c(Cl)cc2n1[O-],H37Rv,BACTEC,,inhibition,VERO,6.25 µg/mL,100%
O=C1NC(=O)C2(N1)c1cc([N+](=O)[O-])ccc1-c1ccc([N+](=O)[O-])cc12,H37Rv,resazurin,,MIC bound,,,>6.25 µg/mL
CC1OC(=O)c2ccc(O)cc21,H37Rv,,,MIC,,,1000 µg/mL
O=S(=O)(Cc1cn(-c2ccc(Br)cc2)nn1)C1c2ccccc2-c2ccccc21,Specimen 192,broth dilution,,MIC99,,,>214 µM
CC1OC(=O)c2c(O)cccc21,H37Rv,,,MIC,,,1000 µg/mL
Nc1ccc(C(=O)N/N=C/c2ccc([N+](=O)[O-])o2)cc1,H37Rv,,,inhibition,,12.5 µg/mL,70%
CCOC(=O)c1ccc(NC(=O)CCl)cc1S(=O)(=O)NC(=O)Nc1nccc(OC)n1,H37Rv,,,MIC,,,>80 µg/mL
c1ccc(CSc2nc3ccccc3[nH]2)cc1,My 331/88,,,MIC,,,250 µM
COc1ccc2c(c1)[n+](=O)c(C(C)=O)c(C)n2[O-],H37Rv,,inside macrophages,MIC,,,1.56 µg/mL
Nc1ccc(C(=O)N/N=C/c2ccc([N+](=O)[O-])cc2)cc1,H37Rv,,,MIC,,,>12.5 µg/mL
CCCCCCCCCCOCC(O)CNCCNCC(O)COCCCCCCCCCC,H37Rv,,,inhibition,,6.25 µg/mL,98%
CC1OC(=O)c2cc(N)ccc21,H2,,,MIC,,,10 µg/mL
Fc1ccc(CSc2nc3ccccc3[nH]2)cc1F,My 331/88,,,MIC,,,62 µM
OC[C@H]1O[C@@H](c2[nH]nc3c(=S)nc[nH]c23)[C@H](O)[C@@H]1O,H37Rv,BACTEC,,inhibition,,12.5 µg/mL,-1%
CCCCCCCCCCCCCCCCS(=O)(=O)C[C@@H]1O[C@H](CO)[C@@H](O)[C@@H]1O,H37Rv,,,EC50,,,>6.25 µg/mL
CC(=O)C(NC(=O)C(C)C(O)C(C)NC(=O)C(NC(=O)c1nc(C(CC(N)=O)NCC(N)C(N)=O)nc(N)c1C)C(OC1OC(CO)C(O)C(O)C1(C)OC1OC(CO)C(O)C(O)(C(N)=O)C1O)c1cnc[nH]1)C(=O)NCCC1=NC(c2nc(C(N)=O)cs2)CS1,INH-r,,,MIC,,,0.013 µg/mL
Clc1ccccc1-n1cc(CSC2c3ccccc3-c3ccccc32)nn1,H37Rv,broth dilution,,MIC99,,,>256 µM
COC(=O)C(=O)C(C(=O)C=C(C)C)c1nc2n(c1O)C(=N)N=N2,H37Rv,resazurin,,MIC bound,,,>6.25 µg/mL
CON=C1CC2CN(c3ccc(N4C[C@H](CNC(C)=O)OC4=O)cc3F)CC2C1,H37Rv,resazurin,,MIC,,,1 µg/mL
ClCc1c(-c2ccccc2)oc(-c2ccccc2)c1CCl,H37Rv,BACTEC,,MIC,,,>12.5 µg/mL
O=C(O)c1cn(C2CC2)c2cc(N3CCNCC3)c(F)cc2c1=O,30 isolates/HIV+,,,MIC90,,,8 µg/mL
NC(CCC(=O)OCc1ccccc1)C(=O)NC(CCC(=O)OCc1ccccc1)C(=O)O,H37Rv,BACTEC,,inhibition,,12.5 µg/mL,20%
CN(C)c1ccc(/C=N/NC(=O)c2ccc(N)cc2)cc1,H37Rv,,,MIC,,,>12.5 µg/mL
CC(=O)OCc1cc(=O)n(C)c2c3c4c(cc12)c(C)cc(=O)n4CO3,H37Rv,BACTEC,,MIC,,,1.6 µg/mL
COc1ccccc1N1CCN(Cc2c(C(C)=O)[n+](=O)c3ccccc3n2[O-])CC1,H37Rv,BACTEC,,inhibition,,6.25 µg/mL,0%
CC(C)OC(=O)Nc1ccc(-c2ccc(NC(=O)OC(C)C)cc2Cl)c(Cl)c1,H37Rv,BACTEC,,inhibition,,12.5 µg/mL,0%
COC(=O)c1ccc(Cl)cc1S(=O)(=O)NC(=O)Nc1nccc(C)n1,H37Rv,,,MIC,,,40 µg/mL
CN(c1ccccc1)c1c2c(oc(=O)c1Cl)-c1ccccc1SC2,H37Rv,BACTEC,,MIC bound,,,>12.5 µg/mL
CCOC(=O)c1ccc(Cl)cc1S(=O)(=O)NC(=O)Nc1nccc(OC)n1,H37Rv,,,MIC,,,>80 µg/mL

The last 7 rows once more:

structure,strain or isolate,read by,conditions,endpoint,cell line,tested at,result
CN(C)c1ccc(/C=N/NC(=O)c2ccc(N)cc2)cc1,H37Rv,,,MIC,,,>12.5 µg/mL
CC(=O)OCc1cc(=O)n(C)c2c3c4c(cc12)c(C)cc(=O)n4CO3,H37Rv,BACTEC,,MIC,,,1.6 µg/mL
COc1ccccc1N1CCN(Cc2c(C(C)=O)[n+](=O)c3ccccc3n2[O-])CC1,H37Rv,BACTEC,,inhibition,,6.25 µg/mL,0%
CC(C)OC(=O)Nc1ccc(-c2ccc(NC(=O)OC(C)C)cc2Cl)c(Cl)c1,H37Rv,BACTEC,,inhibition,,12.5 µg/mL,0%
COC(=O)c1ccc(Cl)cc1S(=O)(=O)NC(=O)Nc1nccc(C)n1,H37Rv,,,MIC,,,40 µg/mL
CN(c1ccccc1)c1c2c(oc(=O)c1Cl)-c1ccccc1SC2,H37Rv,BACTEC,,MIC bound,,,>12.5 µg/mL
CCOC(=O)c1ccc(Cl)cc1S(=O)(=O)NC(=O)Nc1nccc(OC)n1,H37Rv,,,MIC,,,>80 µg/mL